# Data from patent publication US20220356230A1 (published 2022).
# B1: mAb10920 (antibody, V domains shown)
# VH: QVQLVESGGGVVQPGRSLRLSCAASGFTFSYYGMHWVRQAPGKGLEWVAVIWYDGSNKFYADSVKGRFTISRDNSKNTLYLQMNSLRAEDTAVYYCAAARPGYYYGMDVWGQGTTVTVSS
# VL: DIQMTQSPSSLSASVGDRVTITCRASQGISNYLAWFQQKPGKAPNSLIYAASSLQRGVPSKFSGSGSGTDFTLTISSLQPEDFATYYCQQYNSYPRTFGQGTKVEIKR
# B2: mAb10938 (antibody, V domains shown)
# VH: EVQLVESGGGLVQPGGSLRLSCAVSGFTVSSNYMSWVRQAPGKGLEWVSLIYSGGSTFYADSVKGRFTISRHNSKNTLYLQMNSLRAEDTAVYYCAREGGYSYDYNYWGQGTLVTVSS
# VL: DIQMTQSPSSLSASVGDRVTITCQASQDIRNYLNWYQQKPGKAPKLLIYDASNLETGVPSRFSGIGSGTDFTFTISSLQPEDIATYYCQQYDNLPITFGQGTRLEIKR
# B3: mAb10922 (antibody, V domains shown)
# VH: EVQLVESGGGLVQPGGSLRLSCAASGFTFSIYEMNWVRQAPGKGLEWVSYITSSGTTIYYADSVKGRFTISRDNAKNSLYLQMNSLRAEDTAVYYCASSSSSGYYFDYWGQGTLVTVSS
# VL: not shown
# Tests used:
# [1] = biological target: T1, VLPs expressing VSV only (negative binding control) (vesicular stomatitis virus); assay: MSD electrochemiluminescence, control VLPs on plate, mAb 5.5 nM, expt 3
# [2] = biological target: T1, VLPs expressing VSV only (negative …); assay: MSD electrochemiluminescence, control VLPs on plate, mAb […], expt 3
# [3] = biological target: SARS-CoV-2 Spike Protein (RBD)(R319-F541).mFc (SARS-CoV-2); assay: Luminex bead assay, antibody supernatant, antigen on microspheres
# [4] = biological target: Bt-SARS-CoV-2 Spike Protein (RBD)(R319-F541).hFc (SARS-CoV-2); assay: Luminex bead assay, antibody supernatant, biotinylated antigen on microspheres
# [5] = biological target: Bt-SARS-CoV-2 Spike Protein (RBD)(R319-F541).mFc (SARS-CoV-2); assay: as above
binder,measurement,setting,value
B1,Antibody Binding Signal (RLU),[1],2540 RLU
same,Antibody Binding Signal (RLU),[2],102 RLU
B2,Binding signal (MFI),[3],30500 MFI
same,Binding signal (MFI),[4],24600 MFI
B3,Binding signal (MFI),[5],18600 MFI
same,Binding signal (MFI),[4],27900 MFI
